The values below come from patent US5646121A, “Pseudopeptides with antiviral activity” (Bayer Aktiengesellschaft, priority 1993, dated 1997).

One experiment relates to HCMV (Davis). Kind of experiment: Anti-HCMV screening test: inhibition of the cytopathogenic effect in HELF cell cultures. Format: cell-based, human cytomegalovirus. Particulars: for IC50: read-out: IC50 (HCMV), HCMV (Davis)-infected HELF cells, 6 days, concentration causing 50% inhibition of the CPE; for SI: selectivity index, defined by footnote 3 (drawing 26), HELF CIC50 versus HCMV IC50.

The next experiment concerns the target HIV protease (HIV-1) (Human immunodeficiency virus type 1 group M subtype B, UniProt P04585). Kind of experiment: HIV-specific protease enzyme test (synthetic peptide cleavage, RP-HPLC). To be noted: read-out: IC50 (RP-HPLC) HIV-1; purified HIV protease, synthetic gag cleavage-site peptide, 50% inhibition of protease activity. As to the method: This is verified using an HIV-specific protease enzyme test.
The results of the examples listed below were obtained using the HIV test system described in the following literature reference [cf. Hansen, J., Billich, S., Schulze, T., Sukrow, S. and M olling, K. (1988), EMBO Journal, Vol, 7, No. 6, pp. 1785-1791]: purified HIV protease was incubated with synthetic peptide which imitates a cleavage site in the gag precursor protein and represents an in-vivo cleavage site for HIV protease. The cleavage products resulting from the synthetic peptide were analysed by reverse phase high performance liquid chromatography (RP-HPLC). The IC50 values which are given relate to that concentration of substance which brings about 50% inhibition of the protease activity under the above-listed test conditions.

With `Cc1ccc(S(=O)(=O)N=C(N)NCCC[C@H](NC(=O)OC(C)(C)C)C(=O)N[C@H](C(=O)NC(C=O)Cc2ccccc2)C(C)(C)C)cc1` (stereo partly drawn), the IC50 with HCMV (Davis) came out at 0.125 µM; on HIV protease (HIV-1) it was 1.9 µM. This compound also gave an SI in the experiment on HCMV (Davis) of 125. Consider `Cc1ccc(S(=O)(=O)N=C(N)NCCC[C@H](NC(=O)OCc2ccncc2)C(=O)N[C@H](C(=O)N[C@H](CO)Cc2ccccc2)C(C)(C)C)cc1`, for which the IC50 at HIV protease (HIV-1) was 13 µM. `Cc1ccc(S(=O)(=O)N=C(N)NCCC[C@H](NC(=O)Cc2ccccn2)C(=O)N[C@H](C(=O)NC(C=O)Cc2ccccc2)C(C)(C)C)cc1` (stereo partly drawn): the figures for the IC50 in the experiment on HCMV (Davis) and at HIV protease (HIV-1) were 0.98 µM and 0.21 µM, respectively. The SI in the experiment with HCMV (Davis) is recorded as 191.

As for `Cc1ccc(S(=O)(=O)N=C(N)NCCC[C@H](NC(=O)OCc2ccc([N+](=O)[O-])cc2)C(=O)N[C@H](C(=O)N[C@H](CO)Cc2ccccc2)C(C)(C)C)cc1`, the IC50 at HIV protease (HIV-1) amounted to 2.6 µM.

On to `Cc1ccc(S(=O)(=O)N=C(N)NCCC[C@H](NC(=O)c2c(F)cccc2F)C(=O)N[C@H](C(=O)NC(C=O)Cc2ccccc2)C(C)(C)C)cc1` (stereo partly drawn), for which the IC50 at HIV protease (HIV-1) was found to be 19 µM.
